For 1 molecule, Kd results are on record in publication PMC9594048, “Targeting a Multidrug-Resistant Pathogen: First Generation Antagonists of Burkholderia cenocepacia’s BC2L-C Lectin” (ACS Chemical Biology, 2022).

Chains of the proteins cited; added tags and fusions are not shown. Residues count along the entry.
UniProt B4EH86, 1-132 limits assumed: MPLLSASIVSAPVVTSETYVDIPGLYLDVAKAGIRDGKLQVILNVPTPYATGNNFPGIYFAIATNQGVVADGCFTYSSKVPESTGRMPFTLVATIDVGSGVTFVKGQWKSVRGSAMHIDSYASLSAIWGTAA

Each structure is given as a SMILES string.

The target in the experiment is BC2L-C-Nt (rBC2L-CN2) (Burkholderia cenocepacia, UniProt B4EH86). Kind of experiment: Isothermal titration calorimetry (ITC). Type of experiment: binding. To be noted: read-out: ITC KD; 25 °C, 20 mM Tris HCl pH 7.0, 100 mM NaCl; SD from duplicates. How it is done: All experiments were performed at 25 °C with an ITC200 isothermal titration calorimeter (Microcal-Malvern Panalytical, Orsay, France). The protein rBC2L-CN2 and its ligands were dissolved in a buffer composed of 20 mM Tris HCl pH 7.0 and 100 mM NaCl. The 200 μL sample cell containing rBC2L-CN (concentrations ranging from 200 to 400 μM) was subjected to injections of ligand solution: 20 to 39 injections of 1 μL or 70 injections of 0.5 μL (5 to 50 mM, chosen depending on the ligand) at intervals of 100, 120, or 200 s, while stirring at 850 rpm. Control experiments were performed by repeating the same protocol, but injecting the ligand into buffer solution. The supplied software Origin 7 or MicroCal PEAQ-ITC was used to fit the experimental data to a theoretical titration curve allowing the determination of affinity.
3. Ligand evaluation materials and methods
3.1. Isothermal Titration Calorimetry
All experiments were performed at 25 °C with an ITC200 isothermal titration calorimeter (Microcal - Malvern Panalytical, Orsay, France). The protein rBC2L -CN2 and its ligands were dissolved in a buffer composed of 20 mM Tris HCl pH 7.0 and 100 mM NaCl. […]
(In general: In ITC the heat of successive injections is recorded.)

For the molecule `C[C@@H]1O[C@H](NC(=O)c2ccc3[nH]ccc3c2)[C@@H](O)[C@H](O)[C@@H]1O` [8e], the Kd was 760 µM.

For orientation: Kd means the constant that tells how readily two partners part at equilibrium.
